# PubChem BioAssay AID624099 | ICCB-Longwood – 2012
# Aim: 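Host factors E2 relies on to silence an HPV18 LCR reporter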 (primary screen)
# Cells: human C33A cervical carcinoma cells (HPV-negative) stably expressing BPV1 E2 and an HPV18 LCR luciferase reporter
# Reagent: siRNA pool against human genes, 40 nM
# Time to read-out: 72 h
# Measured: 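Per-well luciferase luminescence, z-scored on each plate against the plate mean and SD with control wells left out, then averaged across three replicate plates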
# Reading the numbers: mean z-score and z-score: higher = stronger reporter signal, weaker E2 silencing
# Rule for the call: 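Hit if mean z-score reaches 2 and two or more of three replicate z-scores also reach 2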
# Shown is a random part of about 21,000 reagents tested. Over the whole deposit, 497 (2.4%) got an active call. 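Higher z means weaker E2 silencing; only reporter increases were scored, and knock-downs that hurt cell survival may mask genuine repressor factors.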 Reagents against one gene are numbered here.
The opening 6 records, to show the layout:
gene,pool no.,mean z-score,"z-score, replicate A","z-score, replicate B","z-score, replicate C",Outcome
LOC389049 (retired record),1,-0.51,-0.55,-0.9,-0.09,inactive
SQOR (sulfide quinone oxidoreductase),1,0.45,0.71,0.57,0.07,inactive
ILDR1 (immunoglobulin like domain containing receptor 1),1,-0.2,-0.4,0.06,-0.25,inactive
IFFO2 (intermediate filament family orphan 2),1,-1.82,-2.16,-1.77,-1.54,inactive
CDIP1 (cell death inducing p53 target 1),1,-0.34,-0.56,-0.54,0.08,inactive
NDUFV1 (NADH:ubiquinone oxidoreductase core subunit V1),1,-2.03,-2.17,-1.94,-1.99,inactive

The listing, repeating the preview:
gene,pool no.,mean z-score,"z-score, replicate A","z-score, replicate B","z-score, replicate C",Outcome
LOC389049 (retired record),1,-0.51,-0.55,-0.9,-0.09,inactive
SQOR (sulfide quinone oxidoreductase),1,0.45,0.71,0.57,0.07,inactive
ILDR1 (immunoglobulin like domain containing receptor 1),1,-0.2,-0.4,0.06,-0.25,inactive
IFFO2 (intermediate filament family orphan 2),1,-1.82,-2.16,-1.77,-1.54,inactive
CDIP1 (cell death inducing p53 target 1),1,-0.34,-0.56,-0.54,0.08,inactive
NDUFV1 (NADH:ubiquinone oxidoreductase core subunit V1),1,-2.03,-2.17,-1.94,-1.99,inactive
LOC391362 (retired record),1,0.31,-0.01,0.74,0.22,inactive
POLR3H (RNA polymerase III subunit H),1,0.44,0.46,0.8,0.06,inactive
RRP7A (ribosomal RNA processing 7 homolog A),1,-0.49,-0.63,-0.54,-0.3,inactive
ADO (2-aminoethanethiol dioxygenase),1,0.58,0.35,0.53,0.85,inactive
"HLF (HLF transcription factor, PAR bZIP family member)",1,0.22,0.33,0.21,0.12,inactive
MORN5 (MORN repeat containing 5),1,-0.18,-0.16,-0.08,-0.28,inactive
ZIC1 (Zic family zinc finger 1),1,0.79,0.88,0.9,0.59,inactive
ATXN7L3 (ataxin 7 like 3),1,2.97,2.78,3.14,3,active
PDE6A (phosphodiesterase 6A),1,0.3,0.32,0.19,0.4,inactive
CSF2 (colony stimulating factor 2),1,0.88,0.91,0.79,0.95,inactive
OTUD6A (OTU deubiquitinase 6A),1,-1.41,-1.39,-1.48,-1.36,inactive
SEMA3A (semaphorin 3A),1,-0.52,-0.44,-0.51,-0.59,inactive
HMGB1P10 (high mobility group box 1 pseudogene 10),1,0.65,0.85,0.42,0.67,inactive
LOC728626 (retired record),1,1.29,1.12,1.45,1.31,inactive
ACTR2 (actin related protein 2),1,0.78,0.62,0.9,0.83,inactive
PHC3 (polyhomeotic homolog 3),1,0.01,0.18,-0.14,-0.01,inactive
CENPN (centromere protein N),1,-0.19,-0.31,-0.13,-0.12,inactive
LOC400847 (retired record),1,-1.97,-2.14,-2.11,-1.64,inactive
FMNL1 (formin like 1),1,-1.17,-1.03,-1.42,-1.08,inactive
MRPL30 (mitochondrial ribosomal protein L30),1,1.12,1.06,0.99,1.3,inactive
FOXD4 (forkhead box D4),1,0.38,0.48,0.43,0.23,inactive
"GUCY2D (guanylate cyclase 2D, retinal)",1,-0.85,-0.42,-0.92,-1.22,inactive
ZNF275 (zinc finger protein 275),1,-0.07,-0.08,-0.18,0.05,inactive
LOC387897 (retired record),1,-0.12,0.16,0.02,-0.54,inactive
R3HDM2 (R3H domain containing 2),1,-1.04,-1,-1.05,-1.06,inactive
MAP6 (microtubule associated protein 6),1,-1.09,-1.29,-1.13,-0.84,inactive
ARPC3 (actin related protein 2/3 complex subunit 3),1,-0.15,-0.23,-0.17,-0.06,inactive
LOC391035 (retired record),1,-0.68,-0.57,-0.4,-1.06,inactive
IER5 (immediate early response 5),1,-0.85,-0.54,-1.12,-0.87,inactive
NPY1R (neuropeptide Y receptor Y1),1,0.29,0.1,0.31,0.47,inactive
AARS1 (alanyl-tRNA synthetase 1),1,1.57,1.53,1.54,1.63,inactive
LEP (leptin),1,-0.19,-0.38,-0.04,-0.13,inactive
TMEM64 (transmembrane protein 64),1,-0.6,-0.36,-0.71,-0.72,inactive
"ACTA1 (actin alpha 1, skeletal muscle)",1,0.14,-0.04,0.02,0.43,inactive
KLF12 (KLF transcription factor 12),1,-0.92,-1.22,-0.7,-0.84,inactive
DOCK7 (dedicator of cytokinesis 7),1,0.43,0.52,0.15,0.62,inactive
ACSF2 (acyl-CoA synthetase family member 2),1,-0.28,-0.04,-0.52,-0.27,inactive
PRRG1 (proline rich and Gla domain 1),1,1.26,1.13,1.34,1.31,inactive
RPS6KA5 (ribosomal protein S6 kinase A5),1,1.86,1.89,1.83,1.87,inactive
RPL26P32 (ribosomal protein L26 pseudogene 32),1,-0.98,-0.97,-0.7,-1.27,inactive
STX19 (syntaxin 19),1,0.28,0.22,0.33,0.29,inactive
RIPK3 (receptor interacting serine/threonine kinase 3),1,-1.92,-1.93,-1.76,-2.08,inactive
PANK1 (pantothenate kinase 1),1,1.25,1.54,1.14,1.06,inactive
"SPTBN5 (spectrin beta, non-erythrocytic 5)",1,1.14,1.84,0.98,0.58,inactive
ZC4H2 (zinc finger C4H2-type containing),1,-0.59,-0.74,-0.69,-0.36,inactive
CAPSL (calcyphosine like),1,-0.25,-0.35,0.01,-0.42,inactive
IFT88 (intraflagellar transport 88),1,0.91,0.95,0.92,0.85,inactive
SFTA3 (surfactant associated 3),1,-0.48,-0.38,-0.37,-0.67,inactive
NDRG4 (NDRG family member 4),1,1.11,1.26,1.33,0.75,inactive
CAV1 (caveolin 1),1,-0.06,-0.06,-0.16,0.03,inactive
CAV1 (caveolin 1),2,-1.14,-0.55,-1.55,-1.33,inactive
